Anti-infective test results gathered from many reports (values: NIAID ChemDB through PubChem).

Common to all: whole-cell or culture tests; agent: HIV-1

An empty or dashed field is not shown. Rows are shuffled and stem from different studies. ECn is the concentration giving n% inhibition of infection, replication or growth.

smiles | mutations | read by | strain | cells | endpoint | value
COc1cc(C(=O)O[C@@H]2Cc3c(O)cc(O)cc3O[C@@H]2c2ccc(O)c(O)c2)cc(O)c1O | - | p24 | IIIB | H9 | EC50 | >50 µg/mL
Nc1nc(NC2CC2)c2ncn([C@H]3C=C[C@@H](CO)C3)c2n1 | - | p24 | HXB2 | PBMC | EC50 | 1.41 µM
Cc1cn([C@H]2C[C@H]3COC[C@H]3O2)c(=O)[nH]c1=O | - | RT activity | LAV | PBMC | EC50 | >100 µM
CNc1ccc(Cl)cc1S(=O)(=O)c1ccccc1[N+](=O)[O-] | RT-T139L | XTT | Calanolide A-resistant (RT T139L) | CEM + CEM-SS | EC50 | 0.7 µM
CC(C)(C)OC(=O)N[C@@H](Cc1ccccc1)[C@@H](O)C[C@@H](Cc1ccc(OCCCN2CCOCC2)cc1)C(=O)N[C@H]1c2ccccc2C[C@H]1O | - | antigen | IIIB | H9 | EC50 | <0.2 µM
C=CC(C)(C)c1cc([C@@H]2COc3c(ccc4c3C=CC(C)(C)O4)C2)c(O)cc1O | - | MTT | IIIB | MT-4 | EC50 | >20 µg/mL
CC(C)(C)NC(=O)[C@@H]1C[C@@H]2CCCC[C@@H]2CN1C[C@@H](O)[C@H](Cc1ccccc1)NC(=O)[C@H](CC(N)=O)NC(=O)c1ccc2ccccc2n1 | PR-D30N A71V | p24 | NL4-3-P22 (PR D30N A71V) | MT-4 | EC50 | <0.01 µM
CC(C)[C@H](NC(=O)c1ccc2ccccc2n1)C(=O)N[C@@H](Cc1ccccc1)[C@H](O)CN1CC[C@@H](SCc2cccnc2)C[C@H]1C(=O)NC(C)(C)C | PR-M46I A71V I84A | p24 | WT1906-R33 (PR M46I A71V I84A) | C8166 | EC50 | 0.326 µM
COc1ccc2c(c1)N(C(=O)OC(C)C)[C@@H](CSC)C(=S)N2 | RT-E138A | cytopathic effect / MTT | Recombinant mutant | MT-4 | EC50 | 0.0035 µM
COc1ccc(-c2coc3cc(O)c(OC)cc3c2=O)cc1 | - | MTT | IIIB | MT-4 | EC50 | >100 µg/mL
O=C(O[C@H](Cc1c(O)cc(O)cc1O)[C@@H](c1cc(O)c(O)c(O)c1)c1c(O)cc(O)c2c1O[C@H](c1cc(O)c(O)c(O)c1)[C@H](OC(=O)c1cc(O)c(O)c(O)c1)C2)c1cc(O)c(O)c(O)c1 | - | p24 | IIIB | H9 | EC50 | >8 µg/mL
Cc1cn([C@H]2C[C@@H](CCl)[C@@H](CO)O2)c(=O)[nH]c1=O | - | RT activity | LAV | PBMC | EC50 | >100 µM
Nc1ccn([C@@H]2CC[C@H](CO)O2)c(=O)n1 | RT-D67N K70R T215Y K219Q | - | G910-6 AZT-resistant (RT D67N K70R T215Y K219Q) | MT-2 | EC50 | 0.58 µM
Cc1cn([C@@H]2O[C@H](CO[Si](C)(C)C(C)(C)C)C3(OS(=O)(=O)C=C3N)[C@H]2O[Si](C)(C)C(C)(C)C)c(=O)n(C)c1=O | - | cytopathic effect / MTT | Recombinant wild type | MT-4 | EC50 | 0.055 µM
CC(C)=CCc1c(O)ccc(C2COc3cc(O)c(CC=C(C)C)c(O)c3C2=O)c1O | - | MTT | IIIB | MT-4 | EC50 | >100 µg/mL
N#Cc1ccc(Nc2nccc(Oc3cccc(C(=O)CC(=O)C(=O)O)c3)n2)cc1 | Y188L | MTT | IIIB | MT-4 | EC50 | >10 µM
CC(C)(C)OC(=O)N[C@@H](Cc1ccccc1)[C@@H](O)C[C@@H](Cc1ccc(OCCN2CCOCC2)cc1)C(=O)N[C@H]1c2ccccc2C[C@H]1O | - | antigen | RF | MT-4 | EC50 | <0.025 µM
Cc1cn([C@H]2C=C[C@H](CO)O2)c(=O)[nH]c1=O | - | MTT / syncytia | IIIB | MT-4 | EC50 | >10 µM
COc1c(C)c2c(c(O)c1C/C=C(\C)CCC(=O)O)C(=O)OC2 | RT-M41L D67N K70R M184V H208Y T215Y K219E | p24 | MDR (RT M41L D67N K70R M184V H208Y T215Y K219E) DRSM34 | PBMC | EC50 | 0.12 µM
CC(C)(C)NC(=O)[C@@H]1C[C@@H]2CCCC[C@@H]2CN1C[C@@H](O)[C@H](Cc1ccccc1)NC(=O)[C@H](CC(N)=O)NC(=O)c1ccc2ccccc2n1 | - | p24 | 006 | PBMC | EC50 | 0.0248 µM
COc1c(O)cc(C(=O)O[C@@H]2Cc3c(O)cc(O)cc3O[C@@H]2c2ccc(O)c(O)c2)cc1O | - | p24 | IIIB | H9 | EC50 | >50 µg/mL
Cc1cn([C@@H]2O[C@@H](CO)[C@@H](F)[C@H]2O)c(=O)[nH]c1=O | - | MTT / syncytia | IIIB | MT-4 | EC50 | >1000 µM
[N-]=[N+]=N[C@H]1C[C@H](n2ccc(=S)[nH]c2=O)O[C@@H]1CO | - | RT activity | LAV-Bru | CEM-C113 + CEM/C113 | EC50 | 0.07 µM
Cc1ccnc2c1NC(=O)c1cccnc1N2C1CC1 | - | MTT | RES056 | MT-4 | EC50 | >15 µM
Cc1cn([C@H]2C[C@H](F)[C@H](CO)O2)c(=O)[nH]c1=O | - | MTT / syncytia | IIIB | MT-4 | EC50 | >1000 µM
CC(C)(C)OC(=O)N[C@@H](Cc1ccccc1)[C@@H](O)C[C@@H](Cc1ccc(OCCN2CCCCC2)cc1)C(=O)N[C@H]1c2ccccc2C[C@H]1O | - | antigen | IIIB | H9 | EC50 | <0.4 µM
Cc1cn([C@H]2C[C@H](N=[N+]=[N-])[C@@H](COC(=O)C(=O)N[C@@H](CC(C)C)C(=O)O)O2)c(=O)[nH]c1=O | - | - | - | PBMC | EC50 | 0.01 µg/mL
COc1cc(O)c2c(=O)c(Oc3ccccc3)coc2c1 | - | cytopathic effect / MTT | IIIB | MT-4 | EC50 | >100 µg/mL
Cc1cn([C@H]2C[C@H](N=[N+]=[N-])[C@@H](COP(=O)(O)O)O2)c(=O)[nH]c1=O | - | - | IIIB | MT-4 | EC50 | 0.022 µM
CC(C)=CCc1c(O)c(CC=C(C)C)c2c(c1O)-c1cc(O)c(O)cc1CC2 | - | cytopathic effect / MTT | IIIB | MT-4 | EC50 | >4 µg/mL
CC(C)=CCN1Cc2cccc3[nH]c(=S)n(c23)C[C@@H]1C | - | RT activity | Group O isolate | PBMC | EC90 | 5.6 µM
CC(C)CN(C[C@@H](O)[C@H](Cc1ccccc1)NC(=O)O[C@H]1CCOC1)S(=O)(=O)c1ccc(N)cc1 | - | p24 | BaL | PBMC | EC50 | 0.0483 µM
CO[C@H]1O[C@@H](n2ccc(=O)[nH]c2=O)C[C@@H]1N=[N+]=[N-] | - | cytopathic effect / MTT | LAV-Bru | CEM-C113 + CEM/C113 | EC50 | <0.2 µM
O=C(O[C@@H]1Cc2c(O)cc(O)cc2O[C@@H]1c1cc(O)c(O)c(O)c1-c1c([C@H]2Oc3cc(O)cc(O)c3C[C@H]2O)cc(O)c(O)c1O)c1cc(O)c(O)c(O)c1 | - | p24 | IIIB | H9 | EC50 | >9.5 µg/mL
C=CC(C)(C)c1c(O)cc(O)c2c(=O)c(O)c(-c3cc(O)c(O)c(CC=C(C)C)c3CC=C(C)C)oc12 | - | cytopathic effect / MTT | IIIB | MT-4 | EC50 | >40 µg/mL
CC(=O)c1ccc(C)cc1NC(C(N)=O)c1c(Cl)cccc1Cl | - | cytopathic effect / MTT | IIIB Recombinant wild type | MT-4 | EC50 | 0.00512 µM
Cc1cn([C@H]2C[C@H](N=[N+]=[N-])[C@@H](COC(=O)C(=O)N[C@H](C(=O)O)C(C)C)O2)c(=O)[nH]c1=O | - | - | - | PBMC | EC50 | 0.015 µg/mL
CC(C)=CCc1c(O)cc(O)c2c(=O)c(OC3O[C@@H](C)[C@H](O)[C@@H](O)[C@H]3O[C@@H]3O[C@H](CO)[C@@H](O)[C@H](O)[C@H]3O)c(-c3ccc(O)cc3)oc12 | - | cytopathic effect / MTT | IIIB | MT-4 | EC50 | >500 µg/mL
CC(C)c1nc(CN(C)C(=O)N[C@H](C(=O)N[C@@H](Cc2ccccc2)C[C@H](O)[C@H](Cc2ccccc2)NC(=O)OCc2cncs2)C(C)C)cs1 | - | RT activity | RF | MT-2 | EC50 | 0.0698 µM
CCn1c(=O)c(C)cn([C@@H]2O[C@H](CO[Si](C)(C)C(C)(C)C)C3(OS(=O)(=O)C=C3N)[C@H]2O[Si](C)(C)C(C)(C)C)c1=O | RT-A98S | cytopathic effect / MTT | Recombinant mutant | MT-4 | EC50 | 0.025 µM
CCOP(=O)(C[C@@H]1C[C@H](n2cc(C)c(=O)[nH]c2=O)O[C@@H]1CO)OCC | - | RT activity | LAV | PBMC | EC50 | 32 µM
CC(C)(C)NC(=O)[C@@H]1C[C@@H]2CCCC[C@@H]2CN1C[C@@H](O)[C@H](Cc1ccccc1)NC(=O)[C@H](CC(N)=O)NC(=O)c1ccc2ccccc2n1 | - | RT activity | Subtype B isolate | PBMC | EC50 | 0.011 µM
CC(C)=CCN1Cc2cc(Cl)cc3[nH]c(=S)n(c23)C[C@@H]1C | - | syncytia | IIIB WT | CEM | EC50 | 0.047 µM
CC(C)(C)OC(=O)N[C@@H](Cc1ccccc1)[C@@H](O)C[C@@H](Cc1ccc(OCC(=O)N2CCOCC2)cc1)C(=O)N[C@H]1c2ccccc2C[C@H]1O | - | p24 | IIIB | H9 | EC50 | <0.05 µM
CC(C)=CCc1c(CCCc2ccc(O)cc2O)cc(O)c(O)c1CC=C(C)C | - | cytopathic effect / MTT | IIIB | MT-4 | EC50 | >20 µg/mL
N#Cc1ccc(Nc2nccc(Oc3ccc(C(=O)CC(=O)C(=O)O)cc3)n2)cc1 | Y188L | MTT | IIIB | MT-4 | EC50 | >48 µM
Nc1ccn([C@H]2CC[C@@H](CO)O2)c(=O)n1 | - | - | IIIB | MT-4 | EC50 | 2.6 µM

The last 4 rows once more:

CC(C)(C)OC(=O)N[C@@H](Cc1ccccc1)[C@@H](O)C[C@@H](Cc1ccc(OCC(=O)N2CCOCC2)cc1)C(=O)N[C@H]1c2ccccc2C[C@H]1O ; read by: p24 ; strain: IIIB ; cells: H9 ; endpoint: EC50 ; value: <0.05 µM
CC(C)=CCc1c(CCCc2ccc(O)cc2O)cc(O)c(O)c1CC=C(C)C ; read by: cytopathic effect / MTT ; strain: IIIB ; cells: MT-4 ; endpoint: EC50 ; value: >20 µg/mL
N#Cc1ccc(Nc2nccc(Oc3ccc(C(=O)CC(=O)C(=O)O)cc3)n2)cc1 ; mutations: Y188L ; read by: MTT ; strain: IIIB ; cells: MT-4 ; endpoint: EC50 ; value: >48 µM
Nc1ccn([C@H]2CC[C@@H](CO)O2)c(=O)n1 ; strain: IIIB ; cells: MT-4 ; endpoint: EC50 ; value: 2.6 µM